Measured values reported in publication PMC5435703 (Scientific Reports, 2017).
Entries after “also recorded” stand apart in the source; their conditions may differ.

Test: UV-Vis metal(II) binding, metals taken together
Type: physicochemical
Conditions: UV-Vis experiments

SMILES | direct binding of metal(II) cations
COCCOCCOCCOCCOC(=O)Oc1c(Br)cc(Br)c2nc3c(C)cccc3nc12 [HP 25] | do not directly bind; also recorded: does not bind
COCCOCCOCCOCCOC(=O)Oc1c(Br)cc(Br)c2nc3ccccc3nc12 [HP 24] | do not directly bind
